Data on 5 molecules can be found in patent publication US8975247B2, “Methods and compositions of treating a flaviviridae family viral infection” (priority 2009, dated 2015).

The format of data set [1] is in vivo.
Data set [2] has as its system HCV replicon reporter cell lines (Huh7). Kind of data set: MTT assay for HCV replicon reporter cell lines (cell toxicity). As to conditions: read-out: Cell Viability EC50; MTT, replicon cells, 48 hours. For orientation: Tetrazolium assays rely on reduction of a dye to a coloured formazan, in cell work by metabolically active cells.
Assay in data set [3]: as above
As to conditions: human.

As a reminder, the EC50 is the concentration needed to bring the measured effect to its halfway point.

With `Clc1ccc(Cn2c(CN3CCCC3)nc3ccccc32)cc1` [clemizole], in data set [1] (100 mg po BID, entire treatment period), the “plasma levels of clemizole relative to EC50 for genotype 1 (>20 μM) and genotype 2 (8 μM)” value is reported as “below the EC50”. In data set [1] (estimated to be 100× blood levels, at all times), the “theoretical levels of clemizole in the liver relative to EC50 for genotype 1b (>20 μM)” value is recorded as “below the EC50”.
Turning to `CN1CCC(/C=C/c2nc3cc(Br)ccc3n2Cc2ccc(Cl)cc2)C1` (stereo not drawn) [EBP772], the EC50 in data set [2] is above 25 µM.
Same read-out and setting: under `Cc1cc2nc(CCC3CCNC3)n(Cc3ccc(Cl)cc3)c2cc1C` (stereo not drawn) [EBP553] stands above 25 µM.
For the molecule `Clc1ccc(Cn2c(/C=C/C3CCN(CC4CCCCC4)C3)nc3cc(Br)ccc32)cc1` (stereo not drawn) [EBP933], the EC50 at 48 h in data set [3] is above 25 µM.
Same read-out and setting: under `Cc1cc2nc(CCC3CCCN3C)n(Cc3ccc(Cl)cc3)c2cc1C` (stereo not drawn) [EBP661] stands above 25 µM.
